# Measured values reported in the supplement of paper PMC12637763.
# The other results are listed elsewhere or left out. Env chains of viruses from a treatment-interruption trial, translated from the printed DNA. IC50 / IC80 of two broadly neutralizing antibodies; lower = more sensitive virus; >50 µg/ml means not reached and <0.001 µg/ml is below the lowest dose. No active / inactive call.
# Columns and labels:
# antibody 10-1074 [1] = test: neutralization IC50; higher = virus less sensitive to the antibody
# Description: (§1)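 Pseudovirus bearing the Env chain mixed with antibody, from 50 µg/ml in fivefold dilutions, on TZM-bl reporter cells, in duplicate.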
# antibody 3BNC117 [2] = test: as above
# Description: as §1
# antibody 10-1074 [3] = test: neutralization IC80; higher = virus less sensitive to the antibody
# Description: as §1
# antibody 3BNC117 [4] = test: as above
# Description: as §1
binder,measurement,setting,value
"HIV-1 Env, reservoir clone (protein) MRVMGIRKNWQGLWKWGMMLLGMLMICNATEQLWVTVYYGVPVWKEATTTLFCASDAKSYKTEAHNIWATHACVPTDPNPQEINLINVTENFNMWKNDMVEQMHEDIISLWDQSLKPCVKLTPLCVTLQCTNITITINGTDRNLTAEEREEIRNCSYNVTTELKDKKEQIYSLFYRLDITPINENQGKESRNTITKYRLINCNTSVITQACPKINFDPIPIHYCAPAGFAILKCKDKGFNGTGPCKNVSSVQCTHGIKPVVSTQLLLNGSLAEEEIVIRSENITNNAKNIIVQLVTPVNISCVRPNNNTRKSIRIGPGQSFYANNAIIGDIRQAHCNVSRSEWNNTLQKVVKKLGGLLNKTTIDFKPPSGGDPEIIMHTFNCAGEFFYCNTSGLFNSTWKKFNSTWNTTTWNNNSTQVSNGTDSYITLQCRIKQIINMWQGVGKAMYAPPIEGMITCISNITGLILTRDGGARNGSQNETLRPAGGDMRDNWRSELYKYKVVRLEPLGLAPTKARRRVVEREKRAIGLGALFLGFLGAAGSTMGAASLTLTVQARQLLSGIVQQQNNLLRAIEAQQHLLQLTVWGIKQLQARVLAVENYLKDQQLLGIWGCSGKHICTTNVPWNTSWSNKSLSQIWDNMTWNDWEREINNYTGLIYSLIEESQIQQDKNEKELLELDKWASLWNWFKITKWLWYIKIFIMIVGGLIGLRIIFAVLSVVNRVRQGYSPLSFQTLLPASRGPDRPEGIEEEGGEQGRGRSIRLVNGFSALIWDDLRNLILFLYHRLRDLILIATRTVEILGHRGWEAIKYLWNLLLYWIQELKNSAISLYDTLAIAVAGWTDRIIEVGQRIGRAVFHIPRRIRQGAERALI",neutralization IC50,antibody 10-1074 [1],0.041 µg/mL
same,neutralization IC50,antibody 3BNC117 [2],0.161 µg/mL
same,neutralization IC80,antibody 10-1074 [3],0.116 µg/mL
same,neutralization IC80,antibody 3BNC117 [4],0.443 µg/mL
"HIV-1 Env, reservoir clone (protein) MRVMGIRKNWQGLWKWGMMLLGMLMICNATEQLWVTVYYGVPVWKEATTTLFCASDAKSYKTEAHNIWATHACVPTDPNPQEINLINVTENFNMWKNDMVEQMHEDIISLWDQSLKPCVKLTPLCVTLQCTNITITINGTDRNLTAEEREEIRNCSYNVTTELKDKKEQIYSLFYRLDITPINENQGKESRNTITKYRLINCNTSVITQACPKINFDPIPIHYCAPAGFAILKCKDKGFNGTGPCKNVSSVQCTHGIKPVVSTQLLLNGSLAEEEIVIRSENITNNAKNIIVQLVTPVNISCVRPNNNTRKSIRIGPGQSFYANNAIIGDIRQAHCNVSRSEWNNTLQKVVKKLGGLLNKTTIDFKPPSGGDPEIIMHTFNCAGEFFYCNTSGLFNSTWKKFNSTWNTTTWNNNSTQVSNGTDSNITLQCRIKQIINMWQGVGKAMYAPPIEGMITCISNITGLILARDGGARNDSQNETLRPAGGDMRDNWRSELYKYKVVRLEPLGLAPTKARRRVVEREKRAIGLGALFLGFLGAAGSTMGAASLTLTVQARQLLSGIVQQQNNLLRAIEAQQHLLQLTVWGIKQLQARVLAVENYLKDQQLLGIWGCSGKHICTTNVPWNTSWSNKSLSQIWDNMTWNDWEREINNYTGLIYSLIEESQIQQDKNEKELLELDKWASLWNWFKITKWLWYIKIFIMIVGGLIGLRIIFAVLSVVNRVRQGYSPLSFQTLLPASRGPDRPEGIEEEGGEQGRGRSIRLVNGFSALIWDDLRNLILFLYHRLRDLILIATRTVEILGHRGWEAIKYLWNLLLYWIQELKNSAISLYDTLAIAVAGWTDRIIEVGQRIGRAVFHIPRRIRQGAERALI",neutralization IC50,antibody 10-1074 [1],0.036 µg/mL
same,neutralization IC50,antibody 3BNC117 [2],0.341 µg/mL
same,neutralization IC80,antibody 10-1074 [3],0.116 µg/mL
same,neutralization IC80,antibody 3BNC117 [4],1.25 µg/mL
"HIV-1 Env, reservoir clone (protein) MRVRGIQRNWQHLWTWWTLTLGLVIICSTSDNLWVTVYYGVPVWEDADTPLFCASDAKAYSTEKHNVWATHACVPTDPNPQELHLENVTEEFNMWKNNMVEQMHEDIISLWDEALKPCVKLTPLCVTLNCVSLNCSSVNKNVTNGNNSTECAEERENLRNCSFNVTTELKDKKEQTYALFYKLDVVQLNSGNNNNNTYRLINCNVSAIKQACPKVTFDPIPIHYCAPAGFAILKCNDKNFNGTGQCHNVSTVLCTHGIKPVVSTQLLLNGSLSEDEIVIKSENITDNAKSIIVQLNSTVSITCSRPNNNTRKSIRIGPGQVFYAQGDIIGDIRQAHCNVSRGNWTKVMQEVKGQLQKIFNKNITFNSSTGGDLEITTHSFNCRGEFFYCNTTGLFDDTLFNNNNTNDTSPITLPCKIKQIVRMWQRVGQAMYAPPIAGEITCISNITGLLLTRDGGNTTNASNETFRPGGGNMRDNWRSELYKYKVVKIKPLGVAPTKARRRVVQREKRAVGLGAVFLGFLGTAGSTMGAASITLTVQVRQLLSGIVQQQSNLLRAIEAQQHLLQLTVWGIKQLQARVLAVERYLKDQQLLGIWGCSGKLICTTNVPWNTSWSNKSYNEIWDNMTWMQWDKEVRNYSQQIYDLIQESQTQQEKNEQELLALDKWTSLWSWFDISSWLWYIKIFIMIVGGLIGLRIVFAVLSIVKRVRQGYSPLSFQTLTHHQREPDRPEGIEEGGGEQDKDRSIRLVSGFLPLAWDDVRSLCLFLYHRLRDFILIAARTLELLGRSCLQGLRLGREGLKYLWNLLVYWGQELKNSAINLFDTAAIVVANWTDRVIEIAQGIGRAILNIPRRIRQGLERALL",neutralization IC50,antibody 10-1074 [1],0.019 µg/mL
same,neutralization IC50,antibody 3BNC117 [2],0.626 µg/mL
same,neutralization IC80,antibody 10-1074 [3],0.058 µg/mL
same,neutralization IC80,antibody 3BNC117 [4],1.58 µg/mL
